Compound potency records, mixed from different reports. Data source: NIAID ChemDB in PubChem.

Common to all: whole-cell or culture tests; species: HIV-1; cells: TZM-bl; endpoint: EC50

ECn is the concentration giving n% inhibition of infection, replication or growth. An empty or dashed field is not shown. Neighbouring rows are from separate reports.

structure,strain or isolate,mutations,method,conditions,result
O=C1NC(=Nc2ccc(F)c(Cl)c2)S/C1=C\c1ccc(-c2ccc(C(=O)O)c(O)c2)o1,AD8,,β-galactosidase,,>10 µM
Clc1ccc2nc(/C=C/c3ccc(OCc4ccccc4)cc3)cc(Cl)c2c1,UG070,,luminescence,,95.25 µM
Cc1ccnc2c1NC(=O)c1cccnc1N2C1CC1,A17,K103N/Y181C,p24 / ELISA,,>10 µM
Cc1ccc(-c2cc(-c3ccccc3)n(-c3cccc(C(F)(F)F)c3)n2)c(=O)[nH]1,UG070,,luminescence,,190 µM
Cc1nnc(-c2cccc(-c3cccc(C(=O)N4CCCCC4)c3)c2)o1,CNE55,,luminescence,pseudotyped,>30 µM
O=C(Cn1ccc(=O)[nH]c1=O)Nc1ccccn1,VB59,,luciferase,,394 µM
Clc1cc(/C=C/c2ccccc2)nc2ccccc12,UG070,,luminescence,,140 µM
O=C(Cn1ccc(=O)[nH]c1=O)Nc1ccc(Br)cn1,IIIB,,luciferase,,65 µM
Nc1ccn([C@@H]2CS[C@H](CO)O2)c(=O)n1,NL4-3,M184I,luciferase,,0.7808 µM
COc1ccnc2[nH]cc(C(=O)C(=O)N3C4CCCC3CN(C(=O)c3ccccc3)C4)c12,SF162,,luciferase,,0.39 µM
COc1ccc(/C=C/c2cc(Cl)c3cc(Cl)ccc3n2)cc1,UG070,,luminescence,,109 µM
CCc1ccccc1-n1nc(-c2ccc(C)[nH]c2=O)cc1-c1ccccc1,VB59,,luminescence,,>28.17 µM
Cc1cc(Cl)c2ccccc2n1,UG070,,luminescence,,135 µM
CCc1ccc(CCN=C2NC(=O)/C(=C/c3ccc(-c4ccc(C(=O)O)c(O)c4)o3)S2)cc1,NL4-3,,β-galactosidase,,1 µM
Clc1cc(/C=C/c2cccc3ccccc23)nc2ccccc12,UG070,,luminescence,,76 µM
Cc1cn(CC(=O)Nc2ccc(Br)cn2)c(=O)[nH]c1=O,VB59,,luciferase,,43.57 µM
COC[C@@H](c1ccc(C(F)(F)F)cc1)N1CCN(C2(C)CCN(C(=O)c3c(C)ncnc3C)CC2)C[C@@H]1C,S,M518V F519L V535M,,,0.0042 µM
Clc1ccc2nc(/C=C/c3ccc4ccccc4c3)cc(Cl)c2c1,UG070,,luminescence,,25.98 µM
Cc1cn(CC(=O)Nc2ccccn2)c(=O)[nH]c1=O,VB59,,luciferase,,23.26 µM
COc1ccnc2[nH]cc(C(=O)C(=O)N3C4CCC3CN(C(=O)c3ccccc3)C4)c12,AC10,,luciferase,,1.1 µM
O=C(Cn1cnc2c([N+](=O)[O-])cccc21)Nc1ccccn1,IIIB,,luciferase,,6.7 µM
CCC(=O)c1ccc(F)c([C@@H]2C[C@@H]2NC(=O)Nc2ccc(C#N)cn2)c1O,LAI,NNRTI-resistant (RT P225H),β-galactosidase / luminescence,,0.00076 µM
Clc1cc(/C=C/c2ccc(N3CCCC3)cc2)nc2ccccc12,VB59,,luminescence,,9.86 µM
Cc1ccc(-c2cc(-c3ccccc3)n(-c3ccc(C(C)(C)C)cc3)n2)c(=O)[nH]1,VB59,,luminescence,,6.14 µM
O=C(CCC(=O)n1cnc2c([N+](=O)[O-])cccc21)n1cnc2c([N+](=O)[O-])cccc21,VB59,,luciferase,,31.86 µM
Cc1cc(C#N)cc(C)c1Oc1nc(Nc2ccc(C#N)cc2)nc(N)c1Br,,,,,0.0056 µM
Cc1ccc(-c2cc(-c3ccccc3)n(-c3ccc(F)cc3)n2)c(=O)[nH]1,UG070,,luminescence,,35.07 µM
C[C@@H]1CCO[C@H]2Cn3cc(C(=O)NCc4ccc(F)cc4F)c(=O)c(O)c3C(=O)N12,,L74F,luciferase / luminescence,,0.0011 µM
COc1ccc(/C=C/c2cc(Cl)c3ccccc3n2)c(OC)c1,UG070,,luminescence,,6.18 µM
Cc1ccc(-n2nc(-c3ccc(C)[nH]c3=O)cc2-c2ccccc2)cc1,VB59,,luminescence,,>147 µM
O=C1NC(=NCCc2ccc(F)cc2)S/C1=C\c1ccc(-c2cccc([N+](=O)[O-])c2)o1,NL4-3,,β-galactosidase,,>10 µM
Cc1cn([C@H]2C[C@H](N=[N+]=[N-])[C@@H](CO)O2)c(=O)[nH]c1=O,UG070,,luminescence,,0.027 µM
O=C1NC(=NCc2ccc(Cl)c(Cl)c2)S/C1=C\c1ccc(-c2ccc(C(=O)O)c(O)c2)o1,NL4-3,,β-galactosidase,,1.8 µM
Cc1ccc(-c2cc(-c3ccccc3)n(-c3ccc(C)c(C)c3)n2)c(=O)[nH]1,UG070,,luminescence,,464 µM
O=C1NC(=NCc2ccc(Cl)c(F)c2)S/C1=C\c1ccc(-c2ccc(C(=O)O)c(O)c2)o1,NL4-3,,β-galactosidase,,2.3 µM
Cc1ccc(-c2cc(-c3ccccc3)n(-c3ccc(C(F)(F)F)cc3)n2)c(=O)[nH]1,UG070,,luminescence,,89.16 µM
C#C[C@@]1(COP(=O)(O)OP(=O)(O)OP(=O)(O)O)C=C[C@H](n2cc(C)c(=O)[nH]c2=O)O1,NL4-3,P119S,luciferase,,0.85 µM

5 of the rows above, restated:

structure	strain or isolate	mutations	method	conditions	result
Cc1ccc(-c2cc(-c3ccccc3)n(-c3cccc(C(F)(F)F)c3)n2)c(=O)[nH]1	UG070		luminescence		190 µM
COc1ccnc2[nH]cc(C(=O)C(=O)N3C4CCC3CN(C(=O)c3ccccc3)C4)c12	AC10		luciferase		1.1 µM
O=C1NC(=NCc2ccc(Cl)c(F)c2)S/C1=C\c1ccc(-c2ccc(C(=O)O)c(O)c2)o1	NL4-3		β-galactosidase		2.3 µM
CCc1ccc(CCN=C2NC(=O)/C(=C/c3ccc(-c4ccc(C(=O)O)c(O)c4)o3)S2)cc1	NL4-3		β-galactosidase		1 µM
C#C[C@@]1(COP(=O)(O)OP(=O)(O)OP(=O)(O)O)C=C[C@H](n2cc(C)c(=O)[nH]c2=O)O1	NL4-3	P119S	luciferase		0.85 µM